# Test results reported in article PMC10159178 (PLOS ONE, 2023).
# Biological target: wild-type SARS-CoV-2 RBD-His protein (SARS-CoV-2, wild-type, UniProt P0DTC2)
# Experiment: SPR
# Conditions: both partners purified
binder,measurement,value
"1D1 human monoclonal antibody against the RBD of SARS-CoV-2 (antibody, V domains shown) VH: EVLLVESGGGLIQPGGSLRLSCAASGFTVSSNYMIWVRQAPGKGLEWVSLIYSGGSTFYADSVKGRFIISRDSSKNTLYLQMNSLRAEDTAVYYCAREPYGDKAWGQGTLVTVSS VL: DIQMTQSPSSLSASVGDRVTITCQASQDINKYLNWYQQKPGKAPKPLISDTSNLQPGVPSRFSGSGAGTDFTLTISSLQPEDIATYYCQQYDNLPITFGQGTRLEIK",t1/2,1.28 h
